Pooled drug test results. Numbers come from NIAID ChemDB, via PubChem.

All rows: whole-cell or culture tests; agent: Mycobacterium tuberculosis

MIC50, MIC90 and the like: level of inhibition, or share of isolates inhibited. MIC bound comes from a single tested concentration. Percent inhibition refers to the dose given; in toxicity tests it is the harm to the cells. Neighbouring rows are from separate reports. An empty or dashed field is not shown. Two numbers with a dash give a range or band.

compound	dose	read by	conditions	cells	read-out	strain or isolate	result
Cc1c(C(=O)Nc2ccccc2)[n+](=O)c2cc(Cl)ccc2n1[O-]	6.25 µg/mL			VERO	inhibition	H37Rv	99%
O=C(Nc1cccc(Br)c1)c1cc(Cl)ccc1OS(=O)(=O)c1ccccc1			14 d		MIC	H37Rv	8 µM
CCC(C)c1ccc(NC(=O)CCC(=O)Nc2ccc(C(C)CC)cc2)cc1					MIC	H37Rv	500 µM
COc1c(O)cc2oc3cc4c(c(O)c3c(=O)c2c1CC=C(C)C)CC(C(C)(C)O)O4					MIC	H37Ra	25 µg/mL
CCN(CC)CCSCC(=O)O[C@H]1C/C(C)=C\C[C@@]23CCCC1C2C(=O)CC3		resazurin			MIC	mc(^2)7000	50 µg/mL
O=C(NC[C@H]1CN(c2ccc(N3CC4(C3)CS(=O)C4)c(F)c2)C(=O)O1)C1CCC1		broth dilution / fluorescence			MIC	H37Rv	1.8 µg/mL
Cc1c(C(=O)N2CCN(c3ccccc3)CC2)[n+](=O)c2cc(Cl)c(Cl)cc2n1[O-]	6.25 µg/mL				inhibition	H37Rv	0%
O=C1/C(=C/c2ccccc2)CSC/C1=C/c1ccccc1	12.5 µg/mL	BACTEC			inhibition	H37Rv	83%
Cc1c(F)c(N2CCNC(C)C2)cc2c1c(=O)c(C(=O)O)cn2C1CC1					MIC	H37Rv	1 µg/mL
C#CCNCCCCNc1ccnc2cc(Cl)ccc12		resazurin			MIC	H37Rv	15.6 µg/mL
CCOC(=O)C12COC(=O)C1N(C1CCCCC1)C(=O)C2=O	12.5 µg/mL	BACTEC			inhibition	H37Rv	-11%
Cc1ccc(-n2c(=S)oc3c(Cl)cc(Cl)cc3c2=S)cc1					MIC	331/81	4 µM
N#Cc1ccc(-c2ccc(OCC(N)=O)cc2CN2CCN(c3ccccn3)CC2)cc1		broth dilution			MIC	H37Rv (ATCC 27294)	64 µg/mL
COc1ccc(Nc2nc(C(=O)NCCCCCN)cs2)cc1	6.25 µM	resazurin			inhibition		44%
COc1ccc(-c2csc(Nc3ccc(C)cc3)n2)cc1		resazurin			MIC		13 µM
O=C1NS(=O)(=O)C2C(Cl)=C(Cl)C3(Cl)C2C13Cl	6.25 µg/mL	resazurin			inhibition	H37Rv	-18%
CC(=O)N/N=C\c1cc(C2C3CC4CC(C3)CC2C4)nc2ccccc12	6.25 µg/mL	BACTEC			inhibition	H37Rv	0%
Cc1cc2nc(C(=O)NC(C)C)cc(-c3ccccc3Cl)c2c(C)c1-c1ccncc1		fluorescence			MIC90		0.6 µM
O=C(O)c1cnccn1	6.2 µg/mL				inhibition	H37Ra	0%
CC(C)=NNC(=O)CNC(=O)c1ccccc1					MIC		>200 µg/mL
CC1COc2c(N3CCN(C)CC3)c(F)cc3c(=O)c(C(=O)O)cn1c23					MIC50	55 isolates (RMP INH-R)	2 µg/mL
CC(=O)N/N=C/c1ccc2ccccc2n1	6.25 µg/mL	BACTEC			inhibition	H37Rv	5%
C=C1C[C@@H](OC(=O)CSCCN(CC)CC)C2CCC[C@]3(CCC(=O)C23)C[C@@H]1O		resazurin			MIC	mc(^2)7000	50–100 µg/mL
COc1c(O)cc2oc3cc(O)c(CC=C(C)C)c(O)c3c(=O)c2c1CCC(C)(C)O					MIC	H37Ra	25 µg/mL
O=C(CCC(=O)Nc1cccc(Cl)c1)Nc1cccc(Cl)c1					MIC	H37Rv	500 µM
Cc1ccc(-n2c(=S)[nH]c3ccccc3c2=S)cc1					MIC	331/81	16 µM
N[C@@H]1CN(c2c(F)cc3c(=O)c(C(=O)O)cn([C@@H]4C[C@@H]4F)c3c2Cl)CC12CC2					MIC	H37Rv	0.25 µg/mL
S=c1oc2c(Cl)cc(Cl)cc2c(=S)n1-c1cccc(Cl)c1					MIC	331/81	4 µM
CC1COc2c(N3CCN(C)CC3)c(F)cc3c(=O)c(C(=O)O)cn1c23					MIC	H37Rv	1 µg/mL
O=C1/C(=N\NC(=O)c2ccccc2)C(C(O)CO)O/C1=N/NC(=O)c1ccccc1					MIC		1 µg/mL
C#CCNCCCNc1ccnc2cc(Cl)ccc12		resazurin			MIC	H37Rv	15.6 µg/mL
Oc1cc(Cl)ccc1Oc1ccc(Cl)cc1Cl					MIC	H37Rv	34.5 µM
COc1cccc2oc([N+](=O)[O-])cc12				VERO	MIC	H37Rv	3.13 µg/mL
O=C(Nc1cccc(Cl)c1)c1ccc(Cl)cc1OS(=O)(=O)c1ccccc1			14 d		MIC	H37Rv	16 µM
CN(C)CC(C)(C)CN1c2ccccc2Sc2ccccc21.Cl	12.5 µg/mL	BACTEC			inhibition	H37Rv	64%
CC(C)C1=CC[C@]2(C)[C@H](O)C[C@]3(C)C[C@@H]4O[C@]4(C)CC[C@H]3[C@H]12	6.25 µg/mL				inhibition	H37Rv	0%
COc1cccc(/C=N/Nc2ccc([N+](=O)[O-])cn2)c1O	12.5 µg/mL	BACTEC			inhibition	H37Rv	49%
C(=N/Nc1ccccc1)/c1cc(C2CCCCC2)nc2ccccc12	6.25 µg/mL	BACTEC			inhibition	H37Rv	0%
CCN1CCN(/N=C/c2c3c(O)c4c(O)c(C)c5c(c4c2O)C(=O)[C@@](C)(O/C=C/[C@H](OC)[C@@H](C)[C@@H](OC(C)=O)[C@H](C)[C@H](O)[C@H](C)[C@@H](O)[C@@H](C)/C=C/C=C(/C)C(=O)N3)O5)CC1	12.5 µg/mL	BACTEC			inhibition	H37Rv	99.5%
CC(=O)N/N=C\c1cc(C2CCCCC2)nc2ccccc12	6.25 µg/mL	BACTEC			inhibition	H37Rv	0%
CC(NC(=O)C(NC(=O)c1ccc[n+](Cc2ccccc2)c1)C(C)C)C(N)=O.[Br-]		BACTEC			MIC bound	H37Rv	>12.5 µg/mL
O=C(NCCCCCNCc1cccc(Cl)c1)c1csc(Nc2ccc(Cl)cc2)n1	6.25 µg/mL	resazurin			inhibition		99%
COC(=O)COc1ccc(-c2cccc(OC)c2)c(CN2CCN(c3ccccn3)CC2)c1		broth dilution			MIC	H37Rv (ATCC 27294)	8 µg/mL
CCCCc1ccc(NC(=O)CCC(=O)Nc2ccc(CCCC)cc2)cc1					MIC	H37Rv	500 µM
S=c1[nH]c2ccccc2c(=S)n1-c1ccc(Cl)c(Cl)c1					MIC	331/81	32 µM
NCCCCNc1ccnc2cc(Cl)ccc12		resazurin			MIC	H37Rv	250 µg/mL
CCn1c2cc(C)c(C)cc2nc2cc3c(cc21)c(Cl)c(=O)c1ccccc13		BACTEC			MIC bound	H37Rv	≤12.5 µg/mL
S=c1oc2c(Cl)cc(Cl)cc2c(=S)n1-c1ccc(Br)cc1					MIC	331/81	8 µM
O=C(CCC(=O)Nc1ccccc1)Nc1ccccc1					MIC	H37Rv	500 µM
NCCCNc1ccnc2cc(Cl)ccc12		resazurin			MIC	H37Rv	125 µg/mL
NC(=O)c1nc(-c2ccccc2)sc1C(N)=O	12.5 µg/mL	BACTEC			inhibition	H37Rv	-23%
O=C(Nc1ccc(Cl)cc1)c1cc(Cl)ccc1OS(=O)(=O)c1ccccc1			21 d		MIC	H37Rv	4 µM
C/C(=C\COc1ccc2ccc(=O)oc2c1)C1=CC(=O)C(C)(C)O1		BACTEC			MIC	H37Rv	≥12.8 µg/mL
COc1ccc2cc(CN(C(=O)Nc3ccc(F)cc3)C3CC3)c(=O)[nH]c2c1		broth dilution			MIC	H37Rv (ATCC 27294)	>64 µg/mL
O=C(Nc1ccc(Br)cc1)C(=O)Nc1ccc(Br)cc1					MIC	H37Rv	4.1 µM
O=C(c1c(F)c(F)c(F)c(F)c1F)N1CCN(C(=O)c2c(F)c(F)c(F)c(F)c2F)C1=S		BACTEC			MIC bound	H37Rv	≤12.5 µg/mL
C/C=C/C=N/NC(=O)c1ccccc1Cl					MIC		10 µg/mL
CCOC(=O)c1cc(-n2nnc3ccccc32)cn1C	6.25 µg/mL	resazurin			inhibition	H37Rv	32%
O=C(Nc1cccc(F)c1)c1cc(Cl)ccc1OS(=O)(=O)c1ccccc1			14 d		MIC	H37Rv	16 µM
CC(C)=CCc1c(O)c2c(c3oc4cc5c(c(O)c4c(=O)c13)C=CC(C)(C)O5)C=CC(C)(C)O2					MIC	H37Ra	25 µg/mL
Cc1ccc(C)c(NC(=O)C(=O)C2C(=O)N(c3ccccc3)N=C2N)c1	6.25 µg/mL	resazurin			inhibition	H37Rv	20%
Cc1cccc(N2CCN(Cc3cc(OCC(=O)O)ccc3-c3ccc(C#N)cc3)CC2)n1		broth dilution			MIC	H37Rv (ATCC 27294)	64 µg/mL
O=C(N/N=C/c1ccco1)c1ccccc1					MIC		0.1–10 µg/mL
CO/N=C1\CN(c2nc3c(cc2F)c(=O)c(C(=O)O)cn3C2CC2)CC1CN					MIC	H37Rv	4 µg/mL
NCCCCCNC(=O)c1csc(Nc2ccc(Cl)cc2)n1	6.25 µg/mL	resazurin			inhibition		98%
COc1c(O)cc2oc3cc(O)c(CC=C(C)C)c(O)c3c(=O)c2c1CC=C(C)C					MIC	H37Ra	6.25 µg/mL
O=C(N/N=C/c1ccc2c(c1)OCO2)c1ccccc1Cl					MIC		100 µg/mL
Cc1cc2c(cc1C)[n+](=O)c(C(=O)Nc1ccccc1C)c(C)n2[O-]	6.25 µg/mL				inhibition	H37Rv	22%
COC(=O)COc1ccc(-c2cccc(Cl)c2)c(CN2CCN(c3ccccn3)CC2)c1		broth dilution			MIC	H37Rv (ATCC 27294)	8 µg/mL
C[C@@]1(CO)[C@H]2[C@@H](O)C[C@@H]3C[C@H]4C[C@@]3(CC[C@@]4(O)CO)[C@]2(C)CC[C@@H]1O		BACTEC			MIC	H37Rv	≥12.5 µg/mL
Fc1ccc(N/N=C/c2ccnc3ccccc23)cc1	6.25 µg/mL	BACTEC			inhibition	H37Rv	0%
C=C1C[C@@H](OC(=O)CSCCN(CC)CC)C2CCC[C@]3(CCC(=O)C23)C[C@H]1O		resazurin			MIC	mc(^2)7000	12–25 µg/mL
COc1cc2oc3ccc(O)cc3c(=O)c2c(O)c1CC=C(C)C					MIC	H37Ra	>200 µg/mL
C[C@H]1NCc2cc(-c3ccc4c(=O)c(C(=O)O)cn(C5CC5)c4c3OC(F)F)ccc21					MIC	H37Rv	2 µg/mL
OC(c1ccccc1)c1c(-c2ccccc2)oc(-c2ccccc2)c1C(O)c1ccccc1		BACTEC			MIC bound	H37Rv	>12.5 µg/mL
C=C(NC[C@H]1CN(c2ccc(N3C4CCC3CSC4)c(F)c2)C(=O)O1)C1CC1		broth dilution / fluorescence			MIC	H37Rv	1 µg/mL
NC(=O)c1csc(NC2OC(CO)C(O)C(O)C2O)n1		BACTEC			MIC bound	H37Rv	>12.5 µg/mL
CO[C@H]1/C=C/O[C@@]2(C)Oc3c(C)c(O)c4c(O)c(c(/C=N/N5CCN(C)CC5)c(O)c4c3C2=O)NC(=O)/C(C)=C\C=C\[C@H](C)[C@H](O)[C@@H](C)[C@@H](O)[C@@H](C)[C@H](OC(C)=O)[C@@H]1C					MIC	Erdman	0.02 µg/mL
COc1ccc(Cl)c(/C=N/NC(=O)c2ccccc2Cl)c1Cl					MIC		100 µg/mL
C=C(C)C(O)Cc1c(O)cc2oc3cc(O)c(OC)c(CC=C(C)C)c3c(=O)c2c1O					MIC	H37Ra	100 µg/mL
O=C(NO)c1ccccc1					MIC		>200 µg/mL
S=C(S)N1CCN(c2cccc(Cl)c2)CC1	6.25 µg/mL	resazurin			inhibition	H37Rv	12%
Cc1ccc2c(c1)[n+](=O)c(C(=O)N1CCN(c3ccc([N+](=O)[O-])cc3)CC1)c(C)n2[O-]	6.25 µg/mL				inhibition	H37Rv	0%
CCS1=C(C(C)=O)C(=O)OC(C)C1	12.5 µg/mL	BACTEC			inhibition	H37Rv	-6%
O=C(N/N=C/C=C/c1ccccc1)c1ccccc1Cl					MIC		>100 µg/mL
Cc1ccc(S(=O)(=O)NN=C2C3CC=CCC3C(=NNS(=O)(=O)c3ccc(C)cc3)C3CC=CCC23)cc1	12.5 µg/mL	BACTEC			inhibition	H37Rv	1%
COc1cc2oc3cc(O)c(OC)c(CC=C(C)C)c3c(=O)c2c(O)c1CC=C(C)C					MIC	H37Ra	6.25 µg/mL

Again, the opening 11 rows:

compound	dose	read by	conditions	cells	read-out	strain or isolate	result
Cc1c(C(=O)Nc2ccccc2)[n+](=O)c2cc(Cl)ccc2n1[O-]	6.25 µg/mL			VERO	inhibition	H37Rv	99%
O=C(Nc1cccc(Br)c1)c1cc(Cl)ccc1OS(=O)(=O)c1ccccc1			14 d		MIC	H37Rv	8 µM
CCC(C)c1ccc(NC(=O)CCC(=O)Nc2ccc(C(C)CC)cc2)cc1					MIC	H37Rv	500 µM
COc1c(O)cc2oc3cc4c(c(O)c3c(=O)c2c1CC=C(C)C)CC(C(C)(C)O)O4					MIC	H37Ra	25 µg/mL
CCN(CC)CCSCC(=O)O[C@H]1C/C(C)=C\C[C@@]23CCCC1C2C(=O)CC3		resazurin			MIC	mc(^2)7000	50 µg/mL
O=C(NC[C@H]1CN(c2ccc(N3CC4(C3)CS(=O)C4)c(F)c2)C(=O)O1)C1CCC1		broth dilution / fluorescence			MIC	H37Rv	1.8 µg/mL
Cc1c(C(=O)N2CCN(c3ccccc3)CC2)[n+](=O)c2cc(Cl)c(Cl)cc2n1[O-]	6.25 µg/mL				inhibition	H37Rv	0%
O=C1/C(=C/c2ccccc2)CSC/C1=C/c1ccccc1	12.5 µg/mL	BACTEC			inhibition	H37Rv	83%
Cc1c(F)c(N2CCNC(C)C2)cc2c1c(=O)c(C(=O)O)cn2C1CC1					MIC	H37Rv	1 µg/mL
C#CCNCCCCNc1ccnc2cc(Cl)ccc12		resazurin			MIC	H37Rv	15.6 µg/mL
CCOC(=O)C12COC(=O)C1N(C1CCCCC1)C(=O)C2=O	12.5 µg/mL	BACTEC			inhibition	H37Rv	-11%